Pooled drug test results. Numbers come from NIAID ChemDB, via PubChem.

Common to all: growth or infection tests; species: HIV-1

Conditions beyond the fields shown may differ between rows. a–b is a range or a potency band. ECn: concentration that inhibits the pathogen or its effect by n%. An empty or dashed field is not shown.

compound,strain,read-out,method,cells,mutations,result
Cc1cn([C@H]2C[C@H](N=[N+]=[N-])[C@@H](CO)O2)c(=O)[nH]c1=O,IIIB,EC50,syncytia,C8166,-,0.017 µM
CC(C)=CCc1c(O[C@@H]2O[C@H](CO)[C@@H](O)[C@H](O)[C@H]2O)cc2c(c1O)C(=O)[C@H](O)[C@@H](c1ccc(O)cc1)O2,MC99 deltaTAT/REV,EC50,syncytia,1A2,-,29.1 µg/mL
C[C@]12CCC3C(CC=C4C[C@@H](O)CC[C@@]43C)C1CCC2C(=O)/C=C/c1ccsc1,IIIB,EC50,MTT,MT-4,-,>125 µM
Cc1cc(C)cc(S(=O)(=O)c2c(C(=O)NCC(=O)NC(C)C(=O)NN)[nH]c3ccc(Cl)cc23)c1,Nevirapine resistant (RT K103N Y181C),EC50,cytopathic effect / MTT,MT-4,-,3.5 µM
Cc1cn([C@@H]2O[C@H](COC(c3ccccc3)(c3ccccc3)c3ccccc3)C[C@@H]2O)c(=O)[nH]c1=O,IIIB,EC50,antigen,H9,-,>1000 µM
O=C(O)CCC(=O)NCCCC[C@H](NC(=O)OCc1ccccc1)C(=O)NCCCCCC(=O)N[C@@H](CCCCNC(=O)CCC(=O)O)C(=O)OCc1ccccc1,IIIB,EC50,p24,C8166,-,100 µM
CC(C)CN(C[C@@H](O)[C@H](Cc1ccccc1)NC(=O)O[C@H]1CO[C@H]2OCC[C@H]21)S(=O)(=O)c1ccc(N)c(NCCN2CCCC2)c1,IIIB WT,EC50,GFP,MT-4,-,0.0692 µM
CSC1=NC2(C[C@@H]2c2ccccc2)C(=O)N1C(C)=O,RK,EC50,MTT,MT-4/C8166 + MT-4,-,2.3–5.8 µg/mL
CCc1c(Cc2cccc3ccccc23)nc(SCCc2ccccc2)[nH]c1=O,IIIB,EC50,syncytia,C8166,-,1.79 µM
O=C(c1cccc([N+](=O)[O-])c1)c1ccc2[nH]c(=O)oc2c1,IIIB,EC50,syncytia,CEM,-,>8 µg/mL
Cc1cn([C@@H]2O[C@H](CO)C[C@@H]2F)c(=O)nc1N,IIIB,EC50,antigen,H9,-,>1000 µM
C[C@]12CCC3C(CC=C4C[C@@H](O)CC[C@@]43C)C1CCC2C(=O)/C=C/c1ccc(Br)cc1,IIIB,EC50,MTT,MT-4,-,>13.3 µM
NNC(=O)c1[nH]c2ccc(Cl)cc2c1S(=O)(=O)c1ccccc1,IIIB,EC50,p24,C8166,-,<0.02 µM
COC(=O)CC(O)(CC(=O)O)C(=O)NCCCC[C@H](NC(=O)OCc1ccccc1)C(=O)OCc1ccccc1,IIIB,EC50,p24,C8166,-,>100 µM
CC(C)CN(C[C@@H](O)[C@H](Cc1ccccc1)NC(=O)O[C@H]1CO[C@H]2OCC[C@H]21)S(=O)(=O)c1ccc(N)c(NCc2ccc3c(c2)OCO3)c1,IIIB WT,EC50,GFP,MT-4,-,0.00676 µM
Cc1cc(C)cc(S(=O)(=O)c2c(C(N)=O)[nH]c3ccc(Cl)cc23)c1,EFV-resistant (RT K103R V179D P225H),EC50,p24,C8166,-,<0.08 µM
CC(C)c1c(Cc2ccccc2)nc(SCCc2ccccc2)[nH]c1=O,IIIB,EC50,syncytia,C8166,-,1.04 µM
CC(C)CN(C[C@@H](O)[C@H](Cc1ccccc1)NC(=O)O[C@H]1CO[C@H]2OCC[C@H]21)S(=O)(=O)c1ccc(N)c(NCCCN2CCCC2=O)c1,IIIB WT,EC50,GFP,MT-4,-,0.135 µM
CC(C)c1c(Cc2ccccc2)nc(SCC(=O)c2ccccc2)[nH]c1=O,IIIB,EC50,syncytia,C8166,-,0.014 µM
CC(C)C1=C2[C@H]3CC[C@@H]4[C@@]5(C)CC[C@H](OC(=O)[C@H]6C[C@@H](C(=O)O)C6(C)C)C(C)(C)[C@@H]5CC[C@@]4(C)[C@]3(C)CC[C@@]2(CC(=O)NCC(C)(C)N)CC1=O,92HT599,EC50,p24 / ELISA,MT-2,-,<1 µM
C[C@]12CCC3C(CC=C4C[C@@H](O)CC[C@@]43C)C1CCC2C(=O)/C=C/c1ccc(C(F)(F)F)cc1,IIIB,EC50,MTT,MT-4,-,>55.38 µM
O=C(c1cccc(F)c1)c1ccc2c(c1)sc(=O)n2Cc1ccccc1,IIIB,EC50,syncytia,CEM,-,>1.6 µg/mL
COC(=O)CC(O)(CC(=O)O)C(=O)NCCCC[C@H](NC(=O)OCc1ccccc1)C(=O)N[C@@H](CCCCNC(=O)C(O)(CC(=O)O)CC(=O)OC)C(=O)OCc1ccccc1,IIIB,EC50,p24,C8166,-,25 µM
CC(=O)N1N=C(C2CCC3C4CC=C5C[C@@H](O)CC[C@]5(C)C4CC[C@]23C)CC1c1ccc(Br)cc1,IIIB,EC50,MTT,MT-4,-,>0.29 µM
CC(C)C1=C2[C@H]3CC[C@@H]4[C@@]5(C)CC[C@H](OC(=O)[C@H]6C[C@@H](C(=O)O)C6(C)C)C(C)(C)[C@@H]5CC[C@@]4(C)[C@]3(C)CC[C@@]2([C@@H](O)CNCc2ccc(N3CCN(C)CC3)cc2)CC1=O,92HT599,EC50,p24 / ELISA,MT-2,-,<1 µM
O=C(O)/C=C(/CC(=O)O)C(=O)NCCCC[C@H](NC(=O)OCc1ccccc1)C(=O)OCc1ccccc1,IIIB,EC50,p24,C8166,-,40 µM
Nc1ccc(C(=O)c2ccc3[nH]c(=O)oc3c2)cc1,IIIB,EC50,syncytia,CEM,-,>40 µg/mL
C[C@]12CCC3C(CC=C4C[C@@H](O)CC[C@@]43C)C1CCC2C(=O)/C=C/c1ccccc1C(=O)O,IIIB,EC50,MTT,MT-4,-,>13.98 µM
Cc1cn2c(nc1=O)O[C@@H]1[C@H](F)[C@H]2O[C@@H]1COC(c1ccccc1)(c1ccccc1)c1ccccc1,IIIB,EC50,antigen,H9,-,>1000 µM
CN(C)c1cccc(C(=O)c2ccc3c(c2)sc(=O)n3C)c1,IIIB,EC50,syncytia,CEM,-,>40 µg/mL
CC(C)C1=C2[C@H]3CC[C@@H]4[C@@]5(C)CC[C@H](OC(=O)[C@H]6C[C@@H](C(=O)O)C6(C)C)C(C)(C)[C@@H]5CC[C@@]4(C)[C@]3(C)CC[C@@]2(CC(=O)NCc2ccc(Cl)cc2OCCN2CCCC2)CC1=O,92HT599,EC50,p24 / ELISA,MT-2,-,<1 µM
C[C@]12CCC3C(CC=C4C[C@@H](O)CC[C@@]43C)C1CCC2C(=O)/C=C/c1ccoc1,IIIB,EC50,MTT,MT-4,-,>12 µM
Cc1cn([C@@H]2O[C@H](CO)C[C@H]2F)c(=O)[nH]c1=O,IIIB,EC50,antigen,H9,-,>1000 µM
CC(C)C1=C2[C@H]3CC[C@@H]4[C@@]5(C)CC[C@H](OC(=O)[C@H]6C[C@@H](C(=O)O)C6(C)C)C(C)(C)[C@@H]5CC[C@@]4(C)[C@]3(C)CC[C@@]2([C@@H](O)CNC(=O)C(C)(C)NC(=O)c2ccc(Cl)cc2OC2CCNCC2)CC1=O,92HT599,EC50,p24 / ELISA,MT-2,-,<1 µM
C[C@]12CCC3C(CC=C4CC(O)CC[C@@]43C)C1CCC2C1=NN(C(N)=S)C(c2ccc(C(F)(F)F)cc2)C1,IIIB,EC50,MTT,MT-4,-,>7.92 µM
O=C(c1cccc(F)c1)c1ccc2[nH]c(=O)sc2c1,IIIB,EC50,syncytia,CEM,-,>40 µg/mL
CC(C)C1=C2[C@H]3CC[C@@H]4[C@@]5(C)CC[C@H](OC(=O)[C@H]6C[C@@H](C(=O)O)C6(C)C)C(C)(C)[C@@H]5CC[C@@]4(C)[C@]3(C)CC[C@@]2(CCNCc2nc3ccccc3[nH]2)CC1=O,92HT599,EC50,p24 / ELISA,MT-2,-,<1 µM
CC(C)CN(C[C@@H](O)[C@H](Cc1ccccc1)NC(=O)O[C@H]1CO[C@H]2OCC[C@H]21)S(=O)(=O)c1ccc(N)c(NCc2ccccn2)c1,IIIB WT,EC50,GFP,MT-4,-,0.00891 µM
Cc1cn2c(nc1=O)O[C@H]1C[C@@H](COC(c3ccccc3)(c3ccccc3)c3ccccc3)O[C@H]12,IIIB,EC50,antigen,H9,-,>1000 µM
Cc1cc(C)cc(S(=O)(=O)c2c(C(=O)NCC(=O)NN)[nH]c3ccc(Cl)cc23)c1,IIIB,EC90,p24,C8166,-,0.03 µM
CN[C@@H]1[C@H](O[C@@H]2OC[C@@H](O)[C@H](O)[C@H]2O)[C@@H](O)[C@H](O[C@H]2c3cc(C)c(C(=O)N[C@H](C)C(=O)O)c(O)c3-c3c(cc4c(c3O)C(=O)c3cc(OC)cc(O)c3C4=O)[C@@H]2O)O[C@@H]1C,Mutant AH_4/#58,EC50,syncytia,CEM,-,4.7 µM
Cc1cc(C)cc(S(=O)(=O)c2c(C(N)=O)[nH]c3c(Cl)cc(Cl)cc23)c1,IIIB,EC90,p24,C8166,RT-K103R,>100 µM
O=C(CCCCCNC(=O)[C@H](CCCCNC(=O)c1cccc(O)c1C(=O)O)NC(=O)OCc1ccccc1)N[C@@H](CCCCNC(=O)c1cccc(O)c1C(=O)O)C(=O)OCc1ccccc1,IIIB,EC50,p24,C8166,-,10 µM
CC(C)(O)CCc1c(O[C@@H]2O[C@H](CO)[C@@H](O)[C@H](O)[C@H]2O)cc2oc(-c3ccc(O)c(O)c3)c(O)c(=O)c2c1O,MC99 deltaTAT/REV,EC50,syncytia,1A2,-,45.8 µg/mL
CC(C)C1=C2[C@H]3CC[C@@H]4[C@@]5(C)CC[C@H](OC(=O)[C@H]6C[C@@H](C(=O)O)C6(C)C)C(C)(C)[C@@H]5CC[C@@]4(C)[C@]3(C)CC[C@@]2(CC(=O)NCC(C)(C)NC(=O)c2ccccn2)CC1=O,92HT599,EC50,p24 / ELISA,MT-2,-,<1 µM
CC(C)(O)CCc1c(O[C@@H]2O[C@H](CO)[C@@H](O)[C@H](O)[C@H]2O)cc2c(c1O)C(=O)[C@H](O)[C@@H](c1ccc(O)c(O)c1)O2,MC99 deltaTAT/REV,EC50,syncytia,1A2,-,102.4 µg/mL
Cc1cn([C@@H]2O[C@H](COC(c3ccccc3)(c3ccccc3)c3ccccc3)C[C@H]2F)c(=O)[nH]c1=O,IIIB,EC50,antigen,H9,-,>1000 µM